Assay results as given in paper PMC9862759 (Viruses, 2023).

Tested on: SARS-CoV-2 pseudovirus

Compound: COc1c(O)cc2oc(-c3ccccc3)cc(=O)c2c1O [compound 8, Oroxylin A]
- fold more potent antiviral entry activity than chrysin (1): at least 2.7 fold

Compound: O=c1cc(-c2ccccc2)oc2cc(O[C@@H]3O[C@H](CO[C@@H]4O[C@H](CO)[C@@H](O)[C@H](O)[C@H]4O)[C@@H](O)[C@H](O)[C@H]3O)c(O)c(O)c12 [compound 11, Oroxin B]
- decrease in antiviral activity compared to baicalein (7): more than 50%

Compound: O=c1c(O)c(-c2ccc(O)c(O)c2)oc2cc(O)cc(O)c12 [compound 15, Quercetin]
- fold stronger antiviral activity than EC (22): 8.6 fold

Compound: O=C(O[C@@H]1Cc2c(O)cc(O)cc2O[C@@H]1c1ccc(O)c(O)c1)c1cc(O)c(O)c(O)c1 [compound 24, (-)-Epicatechin gallate]
- fold stronger antiviral activity than EC (22): 2.5 fold

Compound: O=C(O[C@@H]1Cc2c(O)cc(O)cc2O[C@@H]1c1cc(O)c(O)c(O)c1)c1cc(O)c(O)c(O)c1 [compound 25, (-)-Epigallocatechin gallate]
- fold more potent antiviral entry activity than EGC (23): 2.3 fold
